Results deposited as PubChem BioAssay AID1259414 (Drosophila RNAi Screening Center, 2018)
Purpose: 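Host factors increasing or decreasing Wolbachia levels in cultured fly cells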 (primary screen). Cell system: Drosophila JW18 cells infected with Wolbachia. Knock-down reagent: long dsRNA against Drosophila genes, 0.25 µg dsRNA per well of a 384-well plate. Timing: 5 days. Conditions: cells persistently infected with Wolbachia before knock-down; no added drug. Measured: 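Imaged fluorescence in situ signal for Wolbachia 23S rRNA per DAPI-counted host cell, given as a robust z-score within each plate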. Scale: Wolbachia per cell robust z: higher = more Wolbachia per host cell than the plate typical. Rule for the call: 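Active if absolute robust z reaches 1.5 in two or more of three replicates, leaving out multi- or no-target dsRNAs, genes unexpressed in JW18 and A1 wells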.
In all, the deposit lists about 24,000 reagents; shown is a random part of those with a known target gene and a result. In the full data, about 1,210 (5%) were called active. 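Inactive calls also include excluded dsRNAs with several or no targets, genes unexpressed in JW18, and well A1, regardless of score.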 A plus sign joins genes that one reagent is predicted to hit.

gene	dsRNA	Wolbachia per cell robust z, rep 1	Wolbachia per cell robust z, rep 2	Wolbachia per cell robust z, rep 3	call
CG6429	DRSC06986	0.124	-0.246	-0.627	inactive
CG30080 + CG42662	DRSC05571	-0.0744	0.326	0.368	inactive
mei-P22 (meiotic P22)	DRSC11366	-0.507	-3.99	0.51	inactive
CG43178 + CG43171 + CG43201	DRSC40541	-1.06	0.0644	0.296	inactive
CG8565	DRSC20112	0.822	1.14	0.288	inactive
CecA1 (Cecropin A1)	DRSC16603	0.624	-3.64	-5.32	inactive
CG31321	DRSC13028	0.504	-1.69	-0.258	inactive
CG31321	DRSC27335	-4.12	0.278	-0.182	inactive
puml (pummelig)	DRSC06793	0.514	-0.264	-1.82	inactive
CG31688	DRSC02117	1.75	-0.227	1.88	inactive
CG31688	DRSC02682	-0.965	-0.524	0.46	inactive
CG31688	DRSC25211	-9.5	-2.11	-1.72	inactive
CG31688	DRSC26711	-0.00798	0.351	-0.0458	inactive
CG16998	DRSC10235	-0.239	-0.689	-0.509	inactive
CG14357	DRSC14820	-0.42	-2.05	0.545	inactive
CG14357	DRSC28685	-0.722	-1.59	-1.42	inactive
CG1394	DRSC19539	0.467	0.355	0.596	inactive
CG1394	DRSC25019	-0.127	0.378	-0.721	inactive
escl	DRSC02828	-0.693	-0.058	-0.302	inactive
escl	DRSC26256	-1.15	-1.05	-0.541	inactive
Src64B (Src oncogene at 64B)	DRSC08700	0.317	-0.663	-4.88	inactive
Src64B (Src oncogene at 64B)	DRSC36619	-0.0321	0.349	0.229	inactive
CG42249	DRSC19383	0.0839	-2.17	-0.863	inactive
CG42249	DRSC19826	0.845	-0.588	0.224	inactive
CG42249	DRSC28504	1.9	0.623	0.865	inactive
Pop5 (POP5 ribonuclease P/MRP subunit)	DRSC10074	-1.35	-0.0955	-0.531	inactive
CG34169	DRSC01579	-0.948	0.223	-0.261	inactive
Ggamma1 (G protein gamma subunit 1)	DRSC07435	0.494	-1.23	0.204	inactive
Kebab (Kinetochore and EB1 associated basic protein)	DRSC00827	0.119	-8.22	-0.0457	inactive
Kebab (Kinetochore and EB1 associated basic protein)	DRSC29332	-0.265	-1.7	-7.28	active
stan (starry night)	DRSC05234	1.25	0.373	1.02	inactive
stan (starry night)	DRSC07697	-0.716	-0.18	0.0727	inactive
stan (starry night)	DRSC40783	-2.82	1.42	0.751	inactive
ClC-c (Chloride channel-c)	DRSC10499	0.105	0.628	-0.406	inactive
scramb2 (scramblase 2)	DRSC08543	-1.38	-0.27	-0.418	inactive
scramb2 (scramblase 2)	DRSC26609	0.615	0.477	1.29	inactive
CG30103	DRSC06894	0.0847	-0.766	-2.47	inactive
CG30103	DRSC29743	-7.64	-7.6	-5.17	inactive
CG18744	DRSC15381	-0.415	-0.724	-0.667	inactive
CG10081	DRSC05962	-0.384	-1.91	-0.0343	inactive
CG10081	DRSC24787	0.712	-0.403	-2.39	inactive
CG3663	DRSC04402	0.123	0.335	-1.33	inactive
CG3663	DRSC27007	-0.958	0.0597	-2.3	inactive
CG33523	DRSC09814	0.00501	-1.57	0.252	inactive
CG33523	DRSC22155	0.458	0.267	-0.675	inactive
HERC2 (HECT and RLD domain containing protein 2)	DRSC20566	-0.728	-1.78	-2.18	active

In a second layout: entries from further up.
{"gene": "CG1394", "dsRNA": "DRSC19539", "Wolbachia per cell robust z, rep 1": 0.467, "Wolbachia per cell robust z, rep 2": 0.355, "Wolbachia per cell robust z, rep 3": 0.596, "call": "inactive"}
{"gene": "CG1394", "dsRNA": "DRSC25019", "Wolbachia per cell robust z, rep 1": -0.127, "Wolbachia per cell robust z, rep 2": 0.378, "Wolbachia per cell robust z, rep 3": -0.721, "call": "inactive"}
{"gene": "escl", "dsRNA": "DRSC02828", "Wolbachia per cell robust z, rep 1": -0.693, "Wolbachia per cell robust z, rep 2": -0.058, "Wolbachia per cell robust z, rep 3": -0.302, "call": "inactive"}
{"gene": "escl", "dsRNA": "DRSC26256", "Wolbachia per cell robust z, rep 1": -1.15, "Wolbachia per cell robust z, rep 2": -1.05, "Wolbachia per cell robust z, rep 3": -0.541, "call": "inactive"}
{"gene": "Src64B (Src oncogene at 64B)", "dsRNA": "DRSC08700", "Wolbachia per cell robust z, rep 1": 0.317, "Wolbachia per cell robust z, rep 2": -0.663, "Wolbachia per cell robust z, rep 3": -4.88, "call": "inactive"}
{"gene": "Src64B (Src oncogene at 64B)", "dsRNA": "DRSC36619", "Wolbachia per cell robust z, rep 1": -0.0321, "Wolbachia per cell robust z, rep 2": 0.349, "Wolbachia per cell robust z, rep 3": 0.229, "call": "inactive"}
{"gene": "CG42249", "dsRNA": "DRSC19383", "Wolbachia per cell robust z, rep 1": 0.0839, "Wolbachia per cell robust z, rep 2": -2.17, "Wolbachia per cell robust z, rep 3": -0.863, "call": "inactive"}
